A mixed list of measured activities; the numbers were collected in NIAID ChemDB.

Shared fields: enzyme or target tests; agent: Hepatitis C virus; protein: Nonstructural protein 5B

ICn is the concentration giving n% inhibition.

smiles	tested at	read-out	read by	strain or isolate	result
COc1cc(OC)c(CCC2(C3CCCC3)CC(O)=C(Sc3ncc(CO)n3C)C(=O)O2)cc1Cl		IC50			<1 µM
COc1nc(NCCN2CCOCC2)nc(Nc2ccc3cn[nH]c3c2)n1	0.1 µg/mL	inhibition			16%
CNC(=O)c1c(-c2ccc(F)cc2)oc2cc(C3CCCN3C(=O)NC)c(OC)cc12		IC50			≤0.5 µM
COc1cc(OC)c(CCC2(C3CCCC3)CC(O)=C(Sc3ccc(C(=O)O)cn3)C(=O)O2)cc1Cl		IC50			<1 µM
COc1c(-c2ccc3cc(NS(C)(=O)=O)ccc3c2)cc(-n2ccc(=O)[nH]c2=O)cc1C(C)(C)C		IC50	nucleotide incorporation	GT 3a#1	5.6 µM
COc1ccc(CCC2(C3CCCC3)CC(O)=C(Sc3nc(N)c4[nH]cnc4n3)C(=O)O2)cc1		IC50			<1 µM
CNC(=O)c1c(-c2ccc(F)cc2)oc2cc(N(C)S(C)(=O)=O)c(OCCn3nc(C)cc3C)cc12		IC50			≤0.5 µM
COc1cc(OC)c(CCC2(C3CCCC3)CC(=O)CC(=O)O2)cc1Cl		IC50			<1 µM
COc1nc(NCCCN2CCOCC2)nc(Nc2ccc3[nH]ncc3c2)n1	10 µg/mL	inhibition			45%
CNC(=O)c1c(-c2ccc(F)cc2)oc2cc(NS(C)(=O)=O)c(OC)cc12		IC50			≤0.5 µM
COc1ccc(CCC2(C3CCCC3)CC(O)=C(Sc3ncn[nH]3)C(=O)O2)cc1Cl		IC50			<1 µM
CCOC(=O)C1CCN(c2nc(Nc3ccc4[nH]ncc4c3)nc(OC)n2)CC1	0.1 µg/mL	inhibition			0%
CNC(=O)c1c(-c2ccc(F)cc2)oc2cc(N(C)S(C)(=O)=O)c(OCc3ccc(C(=O)OC)cc3)cc12		IC50			≤0.5 µM
Cc1cc(SC2=C(O)CC(CCc3ccc(O)cc3)(C3CCCCC3)OC2=O)c(C(C)(C)C)cc1N		IC50			1–10 µM
CCCOc1cc2c(C(=O)NC)c(-c3ccc(F)cc3)oc2cc1N(CCC)S(C)(=O)=O		IC50			≤0.5 µM
COc1nc(Nc2ccc3cn[nH]c3c2)nc(-n2ccnc2)n1	0.1 µg/mL	inhibition			0%
CNC(=O)c1c(-c2ccc(F)cc2)oc2cc(C(C)N(C)S(C)(=O)=O)c(OC)cc12		IC50			≤0.5 µM
COCCNc1nc(Nc2ccc3cn[nH]c3c2)nc(OC)n1	0.1 µg/mL	inhibition			24%
CNC(=O)c1c(-c2ccc(F)cc2)oc2cc(C3CNC(=O)O3)c(OC)cc12		IC50			≤0.5 µM
COc1cc(CCC2(C3CCCC3)CC(O)=CC(=O)O2)ccc1OCc1ccccc1		IC50			1–10 µM
COc1nc(Nc2ccc3cn[nH]c3c2)nc(NC2CC2)n1	10 µg/mL	inhibition			83%

Lines come from different laboratories, so protocols vary. Blank or dashed fields: not listed here. Two numbers with a dash give a range or band. Percent inhibition refers to the dose given; in toxicity tests it is the harm to the cells.